The exact form of at least one protein or probe is not confirmed.
Test system: HIV-1 reverse transcriptase (HIV-1)
Assay: BLI
Details: 3' inverted dT on template; requires NNRTI compound 7 (40 uM) or 18 (80 uM) plus correct dNTP; 11 mM MgCl2, 160 mM KCl, 30 C; no appreciable peaks without …; purified recombinant protein; protein details: Worthington Biochemical; label: 5' biotin on template

GTGAGCCTGCAATCCCTGCCCCGGTTCATCCTGCTGGAGCTCATGGCGGG / CCCGCCATGAGCTC [ALK wild-type 4460-4509S/4496-4509AS primer-template]
binding result: binds
